Assay results published in patent publication USRE46376 (Wyeth LLC, dated 2017).

How the values were obtained:
[1] = molecular target: L44905-86-10 Triple mutant toxin B (SEQ ID NO: 6), Rxn2, 10° C., day 5 (Clostridium difficile (based on strain …))
[2] = molecular target: L44905-86-12 Triple mutant toxin B (SEQ ID NO: 6), Rxn3, 10° C., day 5 (Clostridium difficile (based on strain …))
[3] = molecular target: L44905-86-05 Triple mutant toxin B (SEQ ID NO: 6), Rxn2, 25° C., day 1 (Clostridium difficile (based on strain …))
[4] = molecular target: L44905-86-07 Triple mutant toxin B (SEQ ID NO: 6), Rxn3, 25° C., day 1 (Clostridium difficile (based on strain …))
[5] = molecular target: L44905-86-03 Triple mutant toxin B (SEQ ID NO: 6), Rxn1, 25° C., day 1 (Clostridium difficile (based on strain …))
[6] = molecular target: L44905-86-19 Triple mutant toxin B (SEQ ID NO: 6), Rxn3, 25° C., day 7 (Clostridium difficile (based on strain …))
[7] = molecular target: L44905-86-11 Triple mutant toxin B (SEQ ID NO: 6), Rxn2, 25° C., day 5 (Clostridium difficile (based on strain …))
[8] = molecular target: L44905-86-06 Triple mutant toxin B (SEQ ID NO: 6), Rxn3, 10° C., day 1 (Clostridium difficile (based on strain …))
[9] = molecular target: L44905-86-18 Triple mutant toxin B (SEQ ID NO: 6), Rxn3, 10° C., day 7 (Clostridium difficile (based on strain …))
[10] = molecular target: L44905-86-17 Triple mutant toxin B (SEQ ID NO: 6), Rxn2, 25° C., day 7 (Clostridium difficile (based on strain …))
[11] = molecular target: L44905-86-02 Triple mutant toxin B (SEQ ID NO: 6), Rxn1, 10° C., day 1 (Clostridium difficile (based on strain …))
[12] = molecular target: L44905-86-13 Triple mutant toxin B (SEQ ID NO: 6), Rxn3, 25° C., day 5 (Clostridium difficile (based on strain …))
[13] = molecular target: L44905-86-14 Triple mutant toxin B (SEQ ID NO: 6), Rxn1, 10° C., day 7 (Clostridium difficile (based on strain …))
[14] = molecular target: L44905-86-08 Triple mutant toxin B (SEQ ID NO: 6), Rxn1, 10° C., day 5 (Clostridium difficile (based on strain …))
[15] = molecular target: L44905-86-15 Triple mutant toxin B (SEQ ID NO: 6), Rxn1, 25° C., day 7 (Clostridium difficile (based on strain …))
[16] = molecular target: L44905-86-16 Triple mutant toxin B (SEQ ID NO: 6), Rxn2, 10° C., day 7 (Clostridium difficile (based on strain …))
[17] = molecular target: L44905-86-09 Triple mutant toxin B (SEQ ID NO: 6), Rxn1, 25° C., day 5 (Clostridium difficile (based on strain …))

Measured: binding result

B1: B59-3 mAb (C. difficile TcdB neutralizing antibody) (antibody, V domains shown)
VH: QVQLQQPGAELVKPGASVKLSCKASGYTFTSYWMHWVKQRPGQGLEWIGVINPSNGRSTYSEKFKTTATVTVDKSSSTAYMQLSILTSEDSAVYYCARAYYSTSYYAMDYWGQGTSVTVSS
VL: VLMTQSPLSLPVSLGDQASISCRSSQNIVHSNGNTYLEWYLQKPGQSPKLLIYKVSNRFSGVPDRFSGSGSGTYFTLKISRVEAEDLGVYYCFQGSHFPFTFGTGTKLEIKR
binds: all assays above

B2: B8-26 mAb (C. difficile TcdB neutralizing antibody) (antibody, V domains shown)
VH: QVQLQQPGAELVKPGAPVKLSCKASGYSFTSYWMNWVKQRPGRGLEWIGRIDPSNSEIYYNQKFKDKATLTVDKSSSTAYIQLSSLTSEDSAVYYCASGHYGSIFAYWGQGTTLTVSS
VL: VQITQSPSYLAASPGETITINCRASKSISKYLAWYQEKPGKTNKLLLYSGSTLQSGIPSRFSGSRSGTDFTLIISSLEPEDSAMYYCQQHNEYPLTFGAGTKLELKR
binds: all assays above
